Test results: patent US9944598B2, “Mono- or di-substituted indole derivatives as dengue viral replication inhibitors” (priority 2014, dated 2018)

These compounds were tested on DENV-2 16681 strain labeled with eGFP (assay: DENV-2 antiviral assay (eGFP fluorescence, Vero cells)). Conditions: SI=CC50/EC50, DENV-2 antiviral assay.
Type: cell-based, Dengue virus
Experimental: The antiviral activity of all the compounds of the invention was tested against DENV-2 16681 strain which was labeled with enhanced green fluorescent protein (eGPF). The culture medium consists of minimal essential medium supplemented with 2% of heat-inactivated fetal calf serum, 0.04% gentamycin (50 mg/mL) and 2 mM of L-glutamine. Vero cells, obtained from ECACC, were suspended in culture medium and 25 μL was added to 384-well plates (2500 cells/well), which already contain the antiviral compounds. Typically, these plates contain a 4-fold serial dilution of 9 dilution steps of the test compound at 200 times the final concentration in 100% DMSO (200 nL). In addition, each compound concentration is tested in quadruplicate (final concentration range: 25 μM-0.00038 μM). Finally, each plate contains wells which are assigned as virus controls (containing cells and virus in the absence of compound), cell controls (containing cells in the absence of virus and compound) and medium controls (containing medium in the absence of cells, virus and compounds). To the wells assigned as medium control, 25 μL of culture medium was added instead of Vero cells. Once the cells were added to the plates, the plates were incubated for 30 minutes at room temperature to allow the cells to distribute evenly within the wells. Next, the plates were incubated in a fully humidified incubator (37° C., 5% CO2) until the next day. Then, DENV-2 strain 16681, labeled with eGFP, was added at a multiplicity of infection (MOI) of 0.5. Therefore, 15 μL of virus suspension was added to all the wells containing test compound and to the wells assigned as virus control. In parallel, 15 μL of culture medium was added to the medium and cell controls. Next, the plates were incubated for 3 days in a fully humidified incubator (37° C., 5% CO2). At the day of the read out, the eGFP fluorescence was measured using an automated fluorescence microscope at 488 nm (blue laser). Using an in-house LIMS system, inhibition dose response curves for each compound were calculated and the half maximal effective concentration (EC50) was determined. Therefore, the percent inhibition (I) for every test concentration is calculated using the following formula: I=100*(ST−SCC)/(SVC−SCC); ST, SCC and SVC are the amount of eGFP signal in the test compound, cell control and virus control wells, respectively. The EC50 represents the concentration of a compound at which the virus replication is inhibited with 50%, as measured by a 50% reduction of the eGFP fluorescent intensity compared to the virus control. The EC50 is calculated using linear interpolation (Table 1).

**Q.** COc1cc(NC(C(=O)c2c[nH]c3cc(F)ccc23)c2ccc(Cl)cc2OC)cc(OCCO)c1 (racemic) [Compound 1, 2-(4-chloro-2-methoxyphenyl)-1-(6-fluoro-1H-indol-3-yl)-2-((3-(2-hydroxyethoxy)-5-methoxyphenyl)amino)ethanone] was tested. Which SI did it give?
**A.** The SI was 2053.

**Q.** How did the SI turn out when COc1cc(NC(C(=O)c2c[nH]c3c(C)c(Cl)ccc23)c2ccc(Cl)cc2OC)cc(OCCO)c1 (racemic) [Compound 3, 2-(4-chloro-2-methoxyphenyl)-1-(6-chloro-7-methyl-1H-indol-3-yl)-2-((3-(2-hydroxyethoxy)-5-methoxyphenyl)amino)ethanone] was run?
**A.** The SI was 7587.

**Q.** Which SI does the source give for COc1cc(NC(C(=O)c2c[nH]c3cc(Cl)ccc23)c2ccc(Cl)cc2OC)cc(OCCO)c1 (racemic) [Compound 4, 1-(6-chloro-1H-indol-3-yl)-2-(4-chloro-2-methoxyphenyl)-2-((3-(2-hydroxyethoxy)-5-methoxyphenyl)amino)ethanone] here?
**A.** Its SI is 4398.

**Q.** Which SI does the source give for COc1cc(NC(C(=O)c2c[nH]c3cc(OC)ccc23)c2ccc(Cl)cc2OC)cc(OCCO)c1 (racemic) [Compound 5, 2-(4-chloro-2-methoxyphenyl)-2-((3-(2-hydroxyethoxy)-5-methoxyphenyl)amino)-1-(6-methoxy-1H-indol-3-yl)ethanone] here?
**A.** The SI was 2860.

**Q.** How did the SI turn out when COc1cc(NC(C(=O)c2c[nH]c3cc(OC)c(C)cc23)c2ccc(Cl)cc2OC)cc(OCCO)c1 (racemic) [Compound 6, 2-(4-chloro-2-methoxyphenyl)-2-((3-(2-hydroxyethoxy)-5-methoxyphenyl)amino)-1-(6-methoxy-5-methyl-1H-indol-3-yl)ethanone] was run?
**A.** Its SI is 4639.

**Q.** How did the SI turn out when COc1cc(NC(C(=O)c2c[nH]c3cc(OC)c(F)cc23)c2ccc(Cl)cc2OC)cc(OCCO)c1 (racemic) [Compound 7, 2-(4-chloro-2-methoxyphenyl)-1-(5-fluoro-6-methoxy-1H-indol-3-yl)-2-((3-(2-hydroxyethoxy)-5-methoxyphenyl)amino)ethanone] was run?
**A.** Its SI is 2860.

**Q.** For COc1cc(NC(C(=O)c2c[nH]c3c(C)cc(F)cc23)c2ccc(Cl)cc2OC)cc(OCCO)c1 (racemic) [Compound 8, 2-(4-chloro-2-methoxyphenyl)-1-(5-fluoro-7-methyl-1H-indol-3-yl)-2-((3-(2-hydroxyethoxy)-5-methoxyphenyl)amino)ethanone], which SI is on record?
**A.** Its SI is 3270.

**Q.** Which SI does the source give for COc1cc(NC(C(=O)c2c[nH]c3cc(F)c(F)cc23)c2ccc(Cl)cc2OC)cc(OCCO)c1 (racemic) [Compound 9, 2-(4-chloro-2-methoxyphenyl)-1-(5,6-difluoro-1H-indol-3-yl)-2-((3-(2-hydroxyethoxy)-5-methoxyphenyl)amino)ethanone] here?
**A.** The SI was 3329.

**Q.** Which SI does the source give for COc1cc(NC(C(=O)c2c[nH]c3c(F)c(F)ccc23)c2ccc(Cl)cc2OC)cc(OCCO)c1 (racemic) [Compound 11, 2-(4-chloro-2-methoxyphenyl)-1-(6,7-difluoro-1H-indol-3-yl)-2-((3-(2-hydroxyethoxy)-5-methoxyphenyl)amino)ethanone] here?
**A.** Its SI is 1879.

**Q.** For COc1cc(NC(C(=O)c2c[nH]c3cc(F)ccc23)c2ccc(Cl)cc2OC)cc(OCCO)c1 (single isomer, unassigned) [Compound 1B, 2-(4-chloro-2-methoxyphenyl)-1-(6-fluoro-1H-indol-3-yl)-2-((3-(2-hydroxyethoxy)-5-methoxyphenyl)amino)ethanone], which SI is on record?
**A.** Its SI is 44.

**Q.** For COc1cc(NC(C(=O)c2c[nH]c3c(C)c(F)ccc23)c2ccc(Cl)cc2OC)cc(OCCO)c1 (single isomer, unassigned) [Compound 2B, 2-(4-chloro-2-methoxyphenyl)-1-(6-fluoro-7-methyl-1H-indol-3-yl)-2-((3-(2-hydroxyethoxy)-5-methoxyphenyl)amino)ethanone], which SI is on record?
**A.** The SI was 77.

**Q.** Which SI does the source give for COc1cc(NC(C(=O)c2c[nH]c3c(C)c(Cl)ccc23)c2ccc(Cl)cc2OC)cc(OCCO)c1 (single isomer, unassigned) [Compound 3B, 2-(4-chloro-2-methoxyphenyl)-1-(6-chloro-7-methyl-1H-indol-3-yl)-2-((3-(2-hydroxyethoxy)-5-methoxyphenyl)amino)ethanone] here?
**A.** Its SI is 158.

**Q.** COc1cc(NC(C(=O)c2c[nH]c3cc(Cl)ccc23)c2ccc(Cl)cc2OC)cc(OCCO)c1 (single isomer, unassigned) [Compound 4B, 1-(6-chloro-1H-indol-3-yl)-2-(4-chloro-2-methoxyphenyl)-2-((3-(2-hydroxyethoxy)-5-methoxyphenyl)amino)ethanone] was tested. Which SI did it give?
**A.** Its SI is 164.

**Q.** Which SI does the source give for COc1cc(NC(C(=O)c2c[nH]c3cc(OC)ccc23)c2ccc(Cl)cc2OC)cc(OCCO)c1 (single isomer, unassigned) [Compound 5B, 2-(4-chloro-2-methoxyphenyl)-2-((3-(2-hydroxyethoxy)-5-methoxyphenyl)amino)-1-(6-methoxy-1H-indol-3-yl)ethanone] here?
**A.** The SI was 21.

**Q.** How did the SI turn out when COc1cc(NC(C(=O)c2c[nH]c3cc(OC)c(C)cc23)c2ccc(Cl)cc2OC)cc(OCCO)c1 (single isomer, unassigned) [Compound 6B, 2-(4-chloro-2-methoxyphenyl)-2-((3-(2-hydroxyethoxy)-5-methoxyphenyl)amino)-1-(6-methoxy-5-methyl-1H-indol-3-yl)ethanone] was run?
**A.** Its SI is 71.

**Q.** With COc1cc(NC(C(=O)c2c[nH]c3cc(OC)c(F)cc23)c2ccc(Cl)cc2OC)cc(OCCO)c1 (single isomer, unassigned) [Compound 7B, 2-(4-chloro-2-methoxyphenyl)-1-(5-fluoro-6-methoxy-1H-indol-3-yl)-2-((3-(2-hydroxyethoxy)-5-methoxyphenyl)amino)ethanone] as the compound, how does the SI read?
**A.** Its SI is 112.

**Q.** Which SI does the source give for COc1cc(NC(C(=O)c2c[nH]c3c(C)cc(F)cc23)c2ccc(Cl)cc2OC)cc(OCCO)c1 (single isomer, unassigned) [Compound 8B, 2-(4-chloro-2-methoxyphenyl)-1-(5-fluoro-7-methyl-1H-indol-3-yl)-2-((3-(2-hydroxyethoxy)-5-methoxyphenyl)amino)ethanone] here?
**A.** The SI was 22.

**Q.** For COc1cc(NC(C(=O)c2c[nH]c3c(F)cc(C)cc23)c2ccc(Cl)cc2OC)cc(OCCO)c1 (single isomer, unassigned) [Compound 10B, 2-(4-chloro-2-methoxyphenyl)-1-(7-fluoro-5-methyl-1H-indol-3-yl)-2-((3-(2-hydroxyethoxy)-5-methoxyphenyl)amino)ethanone], which SI is on record?
**A.** The SI was 20.

**Q.** COc1cc(NC(C(=O)c2c[nH]c3c(F)c(F)ccc23)c2ccc(Cl)cc2OC)cc(OCCO)c1 (single isomer, unassigned) [Compound 11A, 2-(4-chloro-2-methoxyphenyl)-1-(6,7-difluoro-1H-indol-3-yl)-2-((3-(2-hydroxyethoxy)-5-methoxyphenyl)amino)ethanone] was tested. Which SI did it give?
**A.** Its SI is 72.

**Q.** COc1cc(NC(C(=O)c2c[nH]c3c(F)cc(C)cc23)c2ccc(Cl)cc2OC)cc(OCCO)c1 (centres unmarked) [Compound 10, 2-(4-chloro-2-methoxyphenyl)-1-(7-fluoro-5-methyl-1H-indol-3-yl)-2-((3-(2-hydroxyethoxy)-5-methoxyphenyl)amino)ethanone] was tested. Which SI did it give?
**A.** The SI was 767.
